Record: PubChem BioAssay AID504761 (Drosophila RNAi Screening Center, 2011)
Assay: 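Genome-wide fly cell screen for genes dengue virus requires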 (primary screen). System: D.Mel-2 cells from Drosophila. Reagent: long dsRNA against Drosophila genes. Conditions: infection with dengue virus type 2; dose and infection time not stated. Detection: 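Per well on two replicate plates, imaging gave the percent of cells positive for viral envelope protein, ranked by infection, and a nuclear count of cells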. Scale: infection score: higher = more virus-infected cells; cell count: higher = more cells in the well. Active means: 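Very low infection ranking in both replicate wells (chance probability at most 0.065), then a retest showing infection dropped 1.5-fold or more at p below 0.05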. Meaning of the calls: active = confirmed: knock-down lowers infection; inactive = not picked or not confirmed.
In all, the deposit lists about 22,000 reagents; shown is a random part of those with a known target gene and a result. Of all reagents, 116 (0.52%) are marked active. 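Calls depend on retest data that are not deposited; infection was ranked per plate without normalising between plates; the unit of the infection score is not given.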 Raw values are not corrected between plates. Reagents against one gene are numbered here. Names joined by + are all predicted targets of the reagent. Further read-outs or replicates are left out here. The record does not give: the amount of reagent, the time to read-out.

What did the screen give for PGRP-LA #1?
infection score, replicate 1: 1.69; cell count, replicate 1: 6279; Call: inactive

With PGRP-LA #2, how do the results read?
infection score, replicate 1: 2.17; cell count, replicate 1: 6170; Call: inactive

What did the screen give for alphaTub84B #1?
infection score, replicate 1: 9.16; cell count, replicate 1: 404; Call: inactive

With alphaTub84B #2, what was measured?
infection score, replicate 1: 5.3; cell count, replicate 1: 528; Call: inactive

What did the screen give for KP78b + KP78a #1?
infection score, replicate 1: 0.79; cell count, replicate 1: 6587; Call: inactive

With KP78b + KP78a #2, what does the deposit list?
infection score, replicate 1: 1.34; cell count, replicate 1: 6579; Call: inactive

For KP78b + KP78a #3, what does the deposit list?
infection score, replicate 1: 14.9; cell count, replicate 1: 5708; Call: inactive

What is on record for rdgC?
infection score, replicate 1: 14.4; cell count, replicate 1: 6857; Call: inactive

With snRNA:U1:95Cc, what was measured?
infection score, replicate 1: 3.34; cell count, replicate 1: 5891; Call: inactive

What is on record for PMCA #1?
infection score, replicate 1: 1.87; cell count, replicate 1: 5892; Call: inactive

What is on record for PMCA #2?
infection score, replicate 1: 2.7; cell count, replicate 1: 6002; Call: inactive

How did the screen score Ada2b?
infection score, replicate 1: 13.1; cell count, replicate 1: 6993; Call: inactive

With XRCC1 #1, how do the results read?
infection score, replicate 1: 1.98; cell count, replicate 1: 6307; Call: inactive

With XRCC1 #2, what was measured?
infection score, replicate 1: 2.89; cell count, replicate 1: 1420; Call: inactive

What is on record for eIF2D?
infection score, replicate 1: 3.98; cell count, replicate 1: 4470; Call: inactive

For Eig71Eh, what does the deposit list?
infection score, replicate 1: 0.93; cell count, replicate 1: 6208; Call: inactive

For sqa #1, how do the results read?
infection score, replicate 1: 22.3; cell count, replicate 1: 5422; Call: inactive

What did the screen give for sqa #2?
infection score, replicate 1: 5.94; cell count, replicate 1: 5706; Call: inactive

Which result is listed for mew #1?
infection score, replicate 1: 2.11; cell count, replicate 1: 6491; Call: inactive

For mew #2, how do the results read?
infection score, replicate 1: 4.37; cell count, replicate 1: 6155; Call: inactive

What did the screen give for PIG-N?
infection score, replicate 1: 13; cell count, replicate 1: 5901; Call: inactive
